Compound potency records, mixed from different reports. Data source: NIAID ChemDB in PubChem.

All rows: tests in culture; organism: Mycobacterium bovis BCG; measure: MIC

Rows are shuffled and stem from different studies. Blank or dashed fields: not listed here.

structure	strain or isolate	read by	setting	result
C=C(C)O[C@H]1C[C@@]2(C)[C@@H](C[C@@H](O)[C@H]3[C@@]4(C)CC[C@@H](O)[C@@H](C)[C@@H]4CC[C@@]32C)/C1=C(\CCC=C(C)C)C(=O)[O-]	Pasteur			3.125 µM
CC(=O)Nc1ccc(/C=N/NC(N)=S)cc1	Pasteur	resazurin		10 µg/mL
Nc1nc(Cl)nc2c1ncn2[C@@H]1O[C@H](CO)[C@@H](O)[C@H]1O	Pasteur			12.5 µM
CCOC(=O)C#CC(=O)OCC	1173P2	resazurin	48 h	7.75 µg/mL
CO[C@H]1/C=C/O[C@@]2(C)Oc3c(C)c(O)c4c(O)c(c(CN5CCN(C)CC5)c(O)c4c3C2=O)NC(=O)/C(C)=C\C=C\[C@H](C)[C@H](O)[C@@H](C)[C@@H](O)[C@@H](C)[C@H](OC(C)=O)[C@@H]1C	Pasteur			50 µM
C#CCCOC(=O)CCCCCC	1173P2	resazurin	48 h	125 µg/mL
OC(c1cc(C23CC4CC(CC(C4)C2)C3)nc2c(Cl)cc(Cl)cc12)C1CCCCN1	Pasteur			25 µM
C[C@H]1COC2(CCN(c3nc(=O)c4cc(C(F)(F)F)cc([N+](=O)[O-])c4s3)CC2)O1	ATCC 35734	resazurin / fluorescence		<0.02 µg/mL
CO[C@H]1/C=C/O[C@@]2(C)Oc3c(C)c(O)c4c(O)c(c(/C=N/N5CCN(C)CC5)c(O)c4c3C2=O)NC(=O)/C(C)=C\C=C\[C@H](C)[C@H](O)[C@@H](C)[C@@H](O)[C@@H](C)[C@H](OC(C)=O)[C@@H]1C	BCG	broth dilution / visual reading		0.001 µg/mL
CCOC(=O)C#Cc1ccccc1	1173P2	resazurin	24 h	7.75 µg/mL
CSC(=S)N/N=C(\C)c1ccc(OCc2ccc(F)cc2F)cc1		resazurin / absorbance		>100 µM
O=C(O)C#Cc1ccccc1	1173P2	resazurin	24 h	62.5 µg/mL
CO[C@@H]1C[C@@H](C[C@H]2CC[C@H](C)[C@H]([C@@H](C)C(=O)O)O2)O[C@]2(O[C@](C)([C@H]3CC[C@@](C)([C@@H]4O[C@@H]([C@H]5O[C@@](O)(CO)[C@H](C)C[C@@H]5C)C[C@@H]4C)O3)C[C@H]2C)[C@@H]1C	1173P2	resazurin		0.625 µg/mL
C#CCCOC(C)=O	1173P2	resazurin	24 h	125 µg/mL
CC1OC(CC(=O)O)CC2=C1C(=O)c1c(O)cccc1C2=O	Pasteur			>100 µM

2 of the rows above, restated:

structure	strain or isolate	read by	setting	result
C=C(C)O[C@H]1C[C@@]2(C)[C@@H](C[C@@H](O)[C@H]3[C@@]4(C)CC[C@@H](O)[C@@H](C)[C@@H]4CC[C@@]32C)/C1=C(\CCC=C(C)C)C(=O)[O-]	Pasteur			3.125 µM
Nc1nc(Cl)nc2c1ncn2[C@@H]1O[C@H](CO)[C@@H](O)[C@H]1O	Pasteur			12.5 µM